Pooled drug test results. Numbers come from NIAID ChemDB, via PubChem.

Common to all: toxicity to cultured cells; read-out: CC50

Neighbouring rows are from separate reports.

SMILES | cell line | read by | result
Nc1ccn(C[C@@H](CO)OCP(=O)(O)O)c(=O)n1 | BCBL-1 | - | 340 µM
NC1C=CC(CC[C@H](N)C(=O)O)C=C1 | HeLa | - | 200 µg/mL
S=c1[nH]nc(-c2ccc(Cl)cc2)s1 | THP-1 | MTT | >100 µg/mL
CCN(CC)CC[n+]1ccc2c(C)c3[nH]c4ccc(O)cc4c3c(C)c2c1 | VERO | - | 2.41 µg/mL
COc1ncnc(N2CC[N+]3(CC2)CC[N+]2(CCN(c4ncnc(OC)c4[N+](=O)[O-])CC2)CC3)c1[N+](=O)[O-] | GMK | - | >760.4 µg/mL
O=C1Nc2ccc(Cl)cc2[C@@](C#CC2CC2)(C(F)(F)F)O1 | SupT1 | WST | >100 µM
Nc1ccn(C[C@@H](CO)OCP(=O)(O)O)c(=O)n1 | P3HR-1 | - | 28 µg/mL
CO[C@@]12[C@H](COC(N)=O)C3=C(C(=O)C(C)=C(N)C3=O)N1C[C@H]1[C@@H]2N1C(=O)c1ccc(Cl)c(Cl)c1 | VERO | - | 1.9 µg/mL
O=C1C(=O)N(CCCNc2ccnc3cc(Cl)ccc23)c2cc(Cl)ccc21 | Human foreskin fibroblasts | MTT / absorbance | 5.25 µM
CCOC(=O)c1ccc2c(c1)nc(-c1ccc(O)c(OC)c1)n2CCN1CCCOC1 | Vero cell | MTT | >62.5 µg/mL
CC(C)=CCC[C@]1(C)C=Cc2c(O)c3c(c(CC=C(C)C)c2O1)O[C@@]12C(=C[C@H]4CC1C(C)(C)O[C@]2(C/C=C(/C)C(N)=O)C4=O)C3=O | Jurkat cells | luminescence | 0.7 µM
CCOC(=O)c1ccc2nc(-c3ccc(OC(F)(F)F)cc3)[nH]c2c1 | Vero cell | MTT | >62.5 µg/mL
Nc1nc2c(ncn2COCCO)c(=O)[nH]1 | P3HR-1 | - | 88 µg/mL
Clc1cc(NC2CCCCC2)nc(SCc2ccccc2)n1 | BCBL-1 | - | 342 µM
N#Cc1ccc(N2CC[N+]3(CC2)CC[N+]2(CCN(c4ccc(C#N)cc4[N+](=O)[O-])CC2)CC3)c([N+](=O)[O-])c1 | GMK | - | >339.3 µg/mL
OC[C@@H](O)C(O)[C@@H](O)CO | HeLa | - | >200 µg/mL
Nc1ncnc2c1ncn2CCCOCP(=O)(O)O | HB611 | - | 64 µM
Cc1ccc(S(=O)(=O)/C=C/c2ccc([N+](=O)[O-])o2)cc1 | VERO | - | 1.56 µg/mL
O=[N+]([O-])c1c(Cl)ncnc1N1CC[N+]2(CC1)CC[N+]1(CCN(c3ncnc(Cl)c3[N+](=O)[O-])CC1)CC2 | GMK | - | 708.8 µg/mL
CC[n+]1c(-c2ccccc2)c2cc(N)ccc2c2ccc(N)cc21 | VERO | - | 37.6 µg/mL
Cc1cc(N2CC[N+](C)(C)CC2)c([N+](=O)[O-])c(N2CC[N+](C)(C)CC2)c1 | GMK | - | >322.9 µg/mL
CC(=O)OC[C@]12CCC(C)=C[C@H]1O[C@@H]1[C@H](O)[C@@H](OC(C)=O)[C@@]2(C)[C@@]12CO2 | HeLa | - | <10 µg/mL
CCCN1CCN(c2ccc([N+](=O)[O-])c3no[n+]([O-])c23)CC1 | VERO | - | 0.07 µg/mL
CCOC(=O)c1ccc2nc(-c3ccc(N4CCOCC4)cc3)[nH]c2c1 | Vero cell | MTT | >62.5 µg/mL
COc1cccc(C2(c3ccccc3)NC(NC(=O)C(C)C)C(=O)Nc3ccccc32)c1 | HEP-2 | - | 5 µM
CCOC(=O)c1ccc2c(c1)nc(-c1ccc(Br)cc1)n2CCN1CCCOC1 | Vero cell | MTT | >62.5 µg/mL
CCCCC/C=C\C/C=C\CCCCCCCC(=O)O | HeLa | - | 100–200 µg/mL
Nc1nc2c(ncn2COC(CO)CO)c(=O)[nH]1 | BCBL-1 | - | 354 µM
CCCCC1CN(S(C)(=O)=O)CCC12CCN(C1(C)CCN(C(=O)c3c(C)ncnc3C)CC1)CC2 | CEM-R5 | - | 0.1 µM
CC(/C=N/NC(=S)SCc1ccccc1)=N\NC(N)=S | VERO | - | 12.5 µg/mL
Clc1ccc(-c2nc(SCC3CC3)n[nH]2)cc1 | Panc-1 | MTT | >100 µg/mL
CN1C(=O)C23CC4(C56CC78SSC(CO)(C(=O)N7C5Nc5ccccc56)N(C)C8=O)c5ccccc5NC4N2C(=O)C1(CO)SS3 | HeLa | - | 200 µg/mL
O=c1[nH]c(=O)n([C@H]2C[C@H](O)[C@@H](CO)O2)cc1/C=C/Br | U138-MG | - | 175 µg/mL
Nc1ccc(-c2nc(=S)[nH][nH]2)cc1 | Panc-1 | MTT | >100 µg/mL
Cc1cc(N)c2ccccc2[n+]1CCCCCCCCCC[n+]1c(C)cc(N)c2ccccc21 | Jurkat cells | luminescence | 0.3 µM
O=[N+]([O-])c1ccc(-c2nc(SCC3CC3)n[nH]2)cc1 | Panc-1 | MTT | >100 µg/mL
CCCCC1C(=O)N(CC2CCN(CC(F)F)CC2)CCC12CCN(C1(C)CCN(C(=O)c3c(C)ncnc3C)CC1)CC2 | CEM-R5 | - | 0.026 µM
FC(F)(F)c1ccc2c(NCCCN3CCN(c4ccnc5cc(Cl)ccc45)CC3)ccnc2c1 | Human foreskin fibroblasts | MTT / absorbance | 2.1 µM
O=C(N[C@@H](Cc1ccccc1)C(=O)CCl)OCc1ccccc1 | Jurkat cells | luminescence | 0.6 µM
O=C1C=C(Nc2ccccc2N=C2C(N3C4=CCc5ccccc5C4=Nc4ccccc43)=CC(=O)c3ccccc32)C(=O)c2ccccc21 | VERO | - | >62.5 µg/mL
FC(F)(F)c1ccc2c(N3CCN(CCCNc4ccnc5cc(Cl)ccc45)CC3)ccnc2c1 | Human foreskin fibroblasts | MTT / absorbance | 1.27 µM
Cc1ccccc1N1C(=O)C(O)=C(C(=O)/C=C/c2ccccc2)C1c1ccc(Br)cc1 | GHOST R5 | - | 50 µM
CN[C@@H]1[C@@H](O)[C@@H](O[C@@H]2[C@@H](O)[C@H](O[C@H]3O[C@H](CN)[C@@H](O)[C@H](O)[C@H]3N)[C@@H](N)C[C@H]2N)OC[C@]1(C)O | HeLa | - | >100 µg/mL
CCOP(=O)(COCCn1cnc2c(=O)[nH]c(N)nc21)OCC | HB611 | - | 15.6 µM
Cc1cccc(Cl)c1NC(=O)NC1N=C(c2ccccc2)c2ccccc2NC1=O | HEP-2 | - | 4 µM
N[C@@H]1[C@@H](O)[C@H](O)[C@@H](CO)O[C@H]1O | HeLa | - | 5000 µM
C=C(C)[C@H]1Cc2c(ccc3c2O[C@@H]2COc4cc(OC)c(OC)cc4[C@@H]2C3=O)O1 | Jurkat cells | luminescence | >100 µM
NC(=S)N=Nc1c(O)n(CN2CCN(c3ccnc4cc(Cl)ccc34)CC2)c2cc(Br)ccc12 | Human foreskin fibroblasts | MTT / absorbance | 2.8 µM
COc1ccc(/C(C)=N/NC(=O)c2ccncc2)c(OC)c1 | VERO | - | >10 µg/mL
COCC(Cn1cnc2c(N)ncnc21)OCP(=O)(O)O | HB611 | - | 64 µM
COCCCn1c2c([n+](Cc3ccc([N+](=O)[O-])cc3)c1C)C(=O)c1ccccc1C2=O | VERO | - | 4.05 µg/mL
Nc1ncnc2c1ncn2[C@@H]1O[C@H](CO)C[C@@H]1O | H4 | - | 40 µg/mL
CCOC(=O)c1ccc2nc(-c3ccc(C(=O)O)cc3)[nH]c2c1 | Vero cell | MTT | >62.5 µg/mL
C/C(=N\Nc1cc(C)c2cc(C)ccc2n1)c1ccccn1 | VERO | - | 0.43 µg/mL
Nc1ncnc2c1ncn2CC(CF)OCP(=O)(O)O | HB611 | - | >200 µM
CC(C)(C)C1=NC(=S)SC2=NC(=O)C3(NN21)c1ccccc1-c1ccccc13 | VERO | - | >10 µg/mL
O=C1C=CC(=O)c2c(O)c(Cl)c(Cl)c(O)c21 | Jurkat cells | luminescence | 0.7 µM
OC(C1CCCCN1)C1CC(c2ccccc2)Nc2c(Cl)cc(Cl)cc21 | VERO | - | 3.4 µg/mL
O=C1C(=O)N(c2ccccc2)C(c2cccc([N+](=O)[O-])c2)/C1=C(\O)c1ccccc1 | GHOST R5 | - | 58 µM
CCOC(=O)c1ccc2c(c1)nc(-c1ccc(OC)cc1)n2CCN1CCCOC1 | Vero cell | MTT | >62.5 µg/mL
O=[N+]([O-])c1ccc(-c2n[nH]c(=S)s2)cc1 | THP-1 | MTT | >100 µg/mL
COc1c(-c2coc3cc4c(cc3c2=O)CC(O)C(C)(C)O4)ccc2c1C=CC(C)(C)O2 | Jurkat cells | luminescence | >100 µM
O=C(NC1N=C(c2ccccc2)c2ccccc2NC1=O)OCc1ccccc1 | HEP-2 | - | 5 µM
C[N+]1(CC[N+]2(C)CCN(c3ncnc(Cl)c3[N+](=O)[O-])CC2)CCN(c2ncnc(Cl)c2[N+](=O)[O-])CC1 | GMK | - | >627.2 µg/mL
O=c1[nH]cnc2c1ncn2[C@H]1CC[C@@H](CO)O1 | HELA-CD4+ | - | 2.3 µM
Cc1nc(N)c2ncn(CC(CO)OCP(=O)(O)O)c2n1 | HB611 | - | >200 µM
C=CCNC(=S)NNC(=O)c1ccncc1 | VERO | - | >62.5 µg/mL
Cc1cccc(CNC(=O)NC2N=C(c3ccccc3)c3ccccc3NC2=O)c1 | HEP-2 | - | 3 µM
O=C(/C=C/c1ccccc1)C1=C(O)C(=O)N(c2cccc(C(F)(F)F)c2)C1c1ccc([N+](=O)[O-])cc1 | GHOST R5 | - | >100 µM
CN(C)CCNc1ccc2nnn3c4ccc(O)cc4c(=O)c1c23 | VERO | - | 1.91 µg/mL
O=C1C=C2C(=CCOC2O)O1 | Jurkat cells | luminescence | 1.1 µM
CC(O)(Cn1cnc2c(N)ncnc21)P(=O)(O)O | HB611 | - | 92 µM
Nc1ncnc2c1ncn2CCOCP(=O)(O)O | BCBL-1 | - | 82 µM
CCN(CC)CCCN(C)Cc1c(-c2ccccc2)oc(-c2ccccc2)c1Cl | VERO | - | 1.8 µg/mL
CCOC(=O)c1ccc2c(c1)nc(-c1ccc(N3CCOCC3)cc1)n2CCN1CCCOC1 | Vero cell | MTT | >62.5 µg/mL
COc1ccc(N2C(=O)C(O)=C(C(=O)/C=C/c3ccccc3)C2c2ccc(Cl)cc2)cc1 | GHOST R5 | - | 56 µM
O=C(NCCCl)N1CCC(CN=c2cc3n(-c4ccc(Cl)cc4)c4ccccc4nc-3cc2Nc2ccc(Cl)cc2)CC1 | VERO | - | 0.6 µg/mL
Nc1ncnc2c1ncn2C[C@@H](CO)OCP(=O)(O)O | HB611 | - | 77.4 µM
O=C(CCCl)NN1CC[N+]2(CC1)CC[N+]1(CCN(NC(=O)CCCl)CC1)CC2 | GMK | - | >393.5 µg/mL
CS(=O)(=O)OCCCNc1ccnc2cc(C(F)(F)F)ccc12 | Human foreskin fibroblasts | MTT / absorbance | 5.67 µM
CCOC(=O)c1ccc2nc(-c3cncc(-c4ccc(F)cc4)c3)[nH]c2c1 | Vero cell | MTT | >62.5 µg/mL
CC(C)C1=CC2=CC(=O)[C@H]3C(C)(C)CCC[C@]3(C)C2=C(O)C1=O | VERO | - | 0.7 µg/mL
CCCCC1CN(S(=O)(=O)C2CC2)CCC12CCN(C1(C)CCN(C(=O)c3c(C)ncnc3C)CC1)CC2 | CEM-R5 | - | 0.007 µM
NC(=O)C1=C[C@H]2[C@H]3C=C[C@@]2(O)C(=O)O[C@@H]3O1 | VERO | - | 2.12 µg/mL
CCSc1nnc(-c2ccc(F)cc2)o1 | Panc-1 | MTT | >100 µg/mL
COc1ccc2c(C)cc(N/N=C/c3cccc(C)n3)nc2c1 | VERO | - | 4.92 µg/mL
O=C(Nc1ccc(OC(F)(F)F)cc1)NC1N=C(c2ccccc2)c2ccccc2NC1=O | HEP-2 | - | 2 µM
Cc1c2cnccc2c(C)c2c1c1ccccc1n2CCNCc1ccccc1 | VERO | - | 0.32 µg/mL
O=C1C(=O)N(CN2CCN(c3ccnc4cc(C(F)(F)F)ccc34)CC2)c2cccc(Br)c21 | Human foreskin fibroblasts | MTT / absorbance | 14 µM
Nc1ncnc2c1cnn2CCOCP(=O)(O)O | HB611 | - | 32 µM

Repeating the final 5 entries:

SMILES,cell line,read by,result
COc1ccc2c(C)cc(N/N=C/c3cccc(C)n3)nc2c1,VERO,-,4.92 µg/mL
O=C(Nc1ccc(OC(F)(F)F)cc1)NC1N=C(c2ccccc2)c2ccccc2NC1=O,HEP-2,-,2 µM
Cc1c2cnccc2c(C)c2c1c1ccccc1n2CCNCc1ccccc1,VERO,-,0.32 µg/mL
O=C1C(=O)N(CN2CCN(c3ccnc4cc(C(F)(F)F)ccc34)CC2)c2cccc(Br)c21,Human foreskin fibroblasts,MTT / absorbance,14 µM
Nc1ncnc2c1cnn2CCOCP(=O)(O)O,HB611,-,32 µM

Blank or dashed fields: not listed here. a–b is a range or a potency band. CCn: concentration that lowers growth or viability of the cells by n%.